Results of unrelated studies side by side (data: NIAID ChemDB).

All rows: growth or infection tests; agent: HIV-1

Blank or dashed fields: not listed here. Rows are shuffled and stem from different studies. ECn is the concentration giving n% inhibition of infection, replication or growth.

{"structure": "Fc1cccc(F)c1Cn1c(=S)[nH]c2ccc(Cl)cc21", "measure": "EC50", "strain": "IIIB", "cells": "MT-4", "read by": "cytopathic effect / MTT", "value": "0.58 µg/mL"}
{"structure": "CCc1nc([N+](=O)[O-])c(N2CCN(C(=O)c3ccc(F)cc3)CC2)n1Cc1ccccc1", "measure": "EC50", "strain": "IIIB", "cells": "MT-4", "read by": "syncytia", "value": ">57.5 µg/mL"}
{"structure": "CC(C)(C)OC(=O)N1[C@H](CO)CC(F)(F)[C@H]1n1cnc2ncnc(N)c21", "measure": "EC90", "strain": "LAI", "cells": "PBMC", "value": ">100 µM"}
{"structure": "CCOP(=O)(OCC)C(N[C@@H](Cc1ccccc1)[C@@H](O)CN(CC(C)C)S(=O)(=O)c1ccc(OC)cc1)C(C)C", "measure": "EC50", "strain": "IIIB", "cells": "MT-4", "read by": "MTT", "value": ">13.68 µg/mL"}
{"structure": "CC(C)(C)OC(=O)N1[C@H](CO)CC(F)(F)[C@@H]1n1cnc2ncnc(N)c21", "measure": "EC90", "strain": "LAI", "cells": "PBMC", "read by": "RT activity", "value": ">100 µM"}
{"structure": "COc1cccc2c1[nH]c(=S)n2Cc1c(F)cccc1F", "measure": "EC50", "strain": "IIIB", "cells": "MT-4", "read by": "cytopathic effect / MTT", "value": ">0.44 µg/mL"}
{"structure": "O=C1CSC(c2ccccc2Cl)N1Cc1ccco1", "measure": "EC50", "strain": "IIIB", "cells": "MT-4", "read by": "cytopathic effect", "value": "6.43 µM"}
{"structure": "Cc1nc(CCCCCCC(=O)c2ccccc2)n2nc(NCCCCCCCCCCNCc3cn([C@H]4C=C[C@@H](CO)O4)c(=O)[nH]c3=O)ccc12", "measure": "EC50", "strain": "IIIB", "cells": "PBMC", "read by": "RT activity", "value": "0.035 µM"}
{"structure": "Cc1ccnc2c1[nH]c(=S)n2Cc1c(F)cccc1F", "measure": "EC50", "strain": "IIIB", "cells": "MT-4", "read by": "cytopathic effect / MTT", "value": ">0.083 µg/mL"}
{"structure": "CCOP(=O)(OCC)C(N[C@@H](Cc1ccccc1)[C@H](O)CN(CC(C)C)S(=O)(=O)c1ccc(OC)cc1)c1ccc([N+](=O)[O-])cc1", "measure": "EC50", "strain": "IIIB", "cells": "MT-4", "read by": "MTT", "value": ">14.24 µg/mL"}
{"structure": "COc1ccc2[nH]c(C(=O)NCc3ccc(Cl)c(Oc4cc(Cl)cc(C#N)c4)c3)cc2c1", "measure": "EC50", "mutations": "RT-K103N", "strain": "HXB2", "cells": "HeLa", "value": ">1 µM"}
{"structure": "CC(C)(C)OC(=O)N1[C@H](CO)CC(F)(F)[C@@H]1n1cnc2c(N)ncnc21", "measure": "EC90", "strain": "LAI", "cells": "PBMC", "read by": "RT activity", "value": ">100 µM"}
{"structure": "Cc1ccccc1C1SCC(=O)N1Cc1ccco1", "measure": "EC50", "strain": "IIIB", "cells": "MT-4", "read by": "cytopathic effect", "value": "29.08 µM"}
{"structure": "O=C(N[C@@H](Cc1ccccc1)C(=O)NC[C@@H](CO)NC(=O)[C@H](Cc1ccccc1)NC(=O)OCC1c2ccccc2-c2ccccc21)OCC1c2ccccc2-c2ccccc21", "measure": "EC50", "strain": "IIIB", "cells": "MOLT-4", "read by": "p24", "value": "0.34 µM"}
{"structure": "CCOP(=O)(OCC)C(N[C@@H](Cc1ccccc1)[C@H](O)CN(CC(C)C)S(=O)(=O)c1ccc(OC)cc1)c1ccc(C)cc1", "measure": "EC50", "strain": "IIIB", "cells": "MT-4", "read by": "MTT", "value": ">2.47 µg/mL"}
{"structure": "Fc1cccc(F)c1CCn1c(=S)[nH]c2cccnc21", "measure": "EC50", "strain": "IIIB", "cells": "MT-4", "read by": "cytopathic effect / MTT", "value": ">25 µg/mL"}
{"structure": "O=C(N[C@@H](Cc1ccccc1)C(=O)NCC[C@@H](CO)NC(=O)[C@H](Cc1ccccc1)NC(=O)c1cc2ccccc2[nH]1)c1cc2ccccc2[nH]1", "measure": "EC50", "strain": "IIIB", "cells": "MOLT-4", "read by": "p24", "value": "3.8 µM"}
{"structure": "Cc1nc(CCCCCCC(=O)c2ccccc2)n2nc(NCCCCCCCCCCN)ccc12", "measure": "EC50", "strain": "LAI", "cells": "CEM + CEM-SS", "read by": "RT activity", "value": "5.4 µM"}
{"structure": "CCc1nc([N+](=O)[O-])c(N2CCN(C(=O)c3cccs3)CC2)n1Cc1ccccc1", "measure": "EC50", "strain": "IIIB", "cells": "MT-4", "read by": "syncytia", "value": ">49 µg/mL"}
{"structure": "Cc1cn([C@H]2C=C[C@@H](CO)O2)c(=O)[nH]c1=O", "measure": "EC50", "cells": "JM", "read by": "cytopathic effect", "value": "40 µM"}
{"structure": "CCc1nc([N+](=O)[O-])c(N2CCN(C(C)=O)CC2)n1Cc1ccccc1", "measure": "EC50", "strain": "IIIB", "cells": "MT-4", "read by": "syncytia", "value": ">63.7 µg/mL"}
{"structure": "Fc1cccc(F)c1CCn1c(=S)[nH]c2ccc(Cl)nc21", "measure": "EC50", "strain": "IIIB", "cells": "MT-4", "read by": "cytopathic effect / MTT", "value": "2.09 µg/mL"}
{"structure": "CC(C)(C)OC(=O)N1[C@H](CO)CC(F)(F)[C@H]1n1cnc2c(N)ncnc21", "measure": "EC90", "strain": "LAI", "cells": "PBMC", "value": ">100 µM"}
{"structure": "CCCCOP(=O)(N[C@@H](Cc1ccccc1)[C@H](O)CN(CC(C)C)S(=O)(=O)c1ccc(OC)cc1)OCCCC", "measure": "EC50", "strain": "RES056", "cells": "MT-4", "read by": "MTT", "value": ">13.08 µg/mL"}
{"structure": "CCOCc1cn([C@H]2C=C[C@@H](CO)O2)c(=O)[nH]c1=O", "measure": "EC50", "strain": "LAI", "cells": "CEM + CEM-SS", "read by": "RT activity", "value": "2.6 µM"}
{"structure": "O=C(N[C@@H](Cc1ccccc1)C(=O)NCC[C@@H](CO)NC(=O)[C@H](Cc1ccccc1)NC(=O)OCc1ccccc1)OCc1ccccc1", "measure": "EC50", "strain": "IIIB", "cells": "MOLT-4", "read by": "p24", "value": "2.3 µM"}
{"structure": "O=C(O)c1cc(-n2cccc2)ccc1Cl", "measure": "EC90", "strain": "93TH051 X4R5 CLADE E", "cells": "PBMC/5.25M7", "read by": "luciferase / cell fusion", "value": "128 µM"}
{"structure": "CC(C)(C)OC(=O)N1[C@H](CO)CC(F)(F)[C@@H]1n1cnc2ncnc(Cl)c21", "measure": "EC90", "strain": "LAI", "cells": "PBMC", "read by": "RT activity", "value": ">100 µM"}
{"structure": "O=C1CSC(c2ccc(-c3cccc4ccccc34)cc2)N1Cc1ccco1", "measure": "EC50", "strain": "IIIB", "cells": "MT-4", "read by": "cytopathic effect", "value": "5.53 µM"}
{"structure": "CC(C)(C)OC(=O)N1[C@H](CO)CC(F)(F)[C@@H]1n1cnc2c(Cl)ncnc21", "measure": "EC90", "strain": "LAI", "cells": "PBMC", "value": ">100 µM"}
{"structure": "O=C1CSC(c2c(F)c(F)c(F)c(F)c2F)N1Cc1ccco1", "measure": "EC50", "strain": "IIIB", "cells": "MT-4", "read by": "cytopathic effect", "value": "46.85 µM"}
{"structure": "CCOC(=O)CSCC(=O)N1CCN(c2c([N+](=O)[O-])nc(CC)n2Cc2ccccc2)CC1", "measure": "EC50", "strain": "IIIB", "cells": "MT-4", "read by": "syncytia", "value": ">2.48 µg/mL"}
{"structure": "CCCCC/C=C/C=C1/C(=O)CCC1C/C=C\\CCCC(=O)O", "measure": "EC50", "cells": "U-937", "read by": "ELISA", "value": "3.1 µM"}
{"structure": "Cc1nc(CCCCCCC(=O)c2ccccc2)n2nc(NCCCCCCCCNCc3cn([C@H]4C=C[C@@H](CO)O4)c(=O)[nH]c3=O)ccc12", "measure": "EC50", "strain": "IIIB", "cells": "MT-4", "read by": "RT activity", "value": "0.36 µM"}
{"structure": "O=C1CSC(c2c(F)cccc2Cl)N1Cc1ccco1", "measure": "EC50", "strain": "IIIB", "cells": "MT-4", "read by": "cytopathic effect", "value": "0.576 µM"}
{"structure": "CC(C)CN(C[C@@H](O)[C@H](Cc1ccccc1)NC(=O)O[C@H]1CCOC1)S(=O)(=O)c1ccc(N)cc1", "measure": "EC50", "strain": "IIIB", "cells": "H9", "read by": "p24", "value": "0.246 µM"}
{"structure": "Cc1nc(CCCCCCC(=O)c2ccccc2)n2nc(NCCCCCCN)ccc12", "measure": "EC50", "strain": "IIIB", "cells": "PBMC", "read by": "RT activity", "value": ">10 µM"}
{"structure": "CCOC(=O)c1nnsc1Nc1ccccc1Nc1snnc1C(=O)OCC", "measure": "EC50", "strain": "IIIB", "cells": "MT-4", "read by": "MTT", "value": "17 µM"}
{"structure": "CCOP(=O)(OCC)C(N[C@@H](Cc1ccccc1)[C@@H](O)CN(CC(C)C)S(=O)(=O)c1ccc(OC)cc1)c1ccc2c(c1)OCO2", "measure": "EC50", "strain": "ROD", "cells": "MT-4", "read by": "MTT", "value": ">13.73 µg/mL"}
{"structure": "CCCCCCCCCCCCCCCCOP(=O)(OCCO[C@@H]1O[C@H](CO)[C@@H](O)[C@H](O)[C@@H]1O)OC[C@H]1O[C@@H](n2cc(C)c(=O)[nH]c2=O)C[C@@H]1N=[N+]=[N-]", "measure": "EC50", "strain": "LAV-Bru", "cells": "U-937", "read by": "RT activity", "conditions": "7 d", "value": ">1 µM"}

For reference, 2 entries again:

structure,measure,mutations,strain,cells,read by,conditions,value
CCCCOP(=O)(N[C@@H](Cc1ccccc1)[C@H](O)CN(CC(C)C)S(=O)(=O)c1ccc(OC)cc1)OCCCC,EC50,,RES056,MT-4,MTT,,>13.08 µg/mL
COc1ccc2[nH]c(C(=O)NCc3ccc(Cl)c(Oc4cc(Cl)cc(C#N)c4)c3)cc2c1,EC50,RT-K103N,HXB2,HeLa,,,>1 µM